Measurements from patent US20250243261A1.

These substances were tested against SARS-CoV-2 Beta Spike on pseudotyped lentivirus (SARS-CoV-2 Beta variant) (assay: cell-based or functional assay).

| Substance | fold improvement in pseudovirus neutralization vs wildtype [fold] |
| --- | --- |
| C143 VL G53V IgG (antibody) | 30 |

What follows are substances tested against SARS-CoV-2 BA.1 Spike on pseudotyped lentivirus (SARS-CoV-2 BA.1 variant) (assay: cell-based or functional assay).

| Substance | BA.1 pseudotyped lentivirus IC50, fold change vs WT [fold] |
| --- | --- |
| SA58 VH A61S / VL M4V IgG (antibody) | 1.4 |
| SA58 VH A61S / VL N95V IgG (antibody) | 2.2 |
| SA58 VH A61S IgG (antibody) | 1 |
| SA58 VH Q82T / VL M4V IgG (antibody) | 0.9 |
| SA58 VH Q82T / VL N95V IgG (antibody) | 2.2 |
| SA58 VH T53L / VL M4V IgG (antibody) | 1.1 |
| SA58 VH T53L / VL N95V IgG (antibody) | 2.3 |
| SA58 VH T53L IgG (antibody) | 1.1 |
| SA58 VH T53L-A61S IgG (antibody) | 1.8 |
| SA58 VL M4V IgG (antibody) | 2.2 |
| SA58 VL N95V IgG (antibody) | 2.4 |
| SA58 VL S54T IgG (antibody) | 1.8 |
| SA58 VL S85A IgG (antibody) | 2.7 |

The substances below were run against SARS-CoV-2 Wuhan Spike on pseudotyped lentivirus (SARS-CoV-2 Wuhan-Hu-1) (UniProt P0DTC2) (assay: cell-based or functional assay).

| Substance | Wuhan pseudotyped lentivirus IC50, fold change vs WT [fold] |
| --- | --- |
| LY-1404 VH D88Q IgG (antibody) | 2.2 |
| LY-1404 VH D88Q_V90S_S62N_V81T_F24Y_H99Y_T70S IgG (antibody) | 0.5 |
| LY-1404 VH D88Q_V90S_S62N_V81T_F24Y_I31T_H99Y IgG (antibody) | 0.5 |
| LY-1404 VH D88Q_V90S_S62N_V81T_F24Y_I31T_H99Y_T70S IgG (antibody) | 0.6 |
| LY-1404 VH D88Q_V90S_S62N_V81T_F24Y_I31T_T70S IgG (antibody) | 0.9 |
| LY-1404 VH D88Q_V90S_S62N_V81T_I31T_H99Y_T70S IgG (antibody) | 1.3 |
| LY-1404 VH F24Y IgG (antibody) | 0.9 |
| LY-1404 VH H99Y IgG (antibody) | 0.6 |
| LY-1404 VH I31T IgG (antibody) | 1.3 |
| LY-1404 VH I105L IgG (antibody) | 2.2 |
| LY-1404 VH S62N / VL E85A IgG (antibody) | 2.3 |
| LY-1404 VH S62N / VL Q39K IgG (antibody) | 2.8 |
| LY-1404 VH S62N IgG (antibody) | 1.9 |
| LY-1404 VH T70S / VL E85A IgG (antibody) | 2.3 |
| LY-1404 VH T70S / VL Q39K IgG (antibody) | 1.8 |
| LY-1404 VH T70S IgG (antibody) | 0.9 |
| LY-1404 VH V81T IgG (antibody) | 1.4 |
| LY-1404 VH V90S / VL E85A IgG (antibody) | 2 |
| LY-1404 VH V90S / VL Q39K IgG (antibody) | 3.5 |
| LY-1404 VH V90S IgG (antibody) | 1.7 |
| LY-1404 VL A98I IgG (antibody) | 1.8 |
| LY-1404 VL F51Y IgG (antibody) | 1.2 |
| LY-1404 VL K44E IgG (antibody) | 1.2 |
| LY-1404 VL K47E IgG (antibody) | 1.4 |
| LY-1404 VL M49L IgG (antibody) | 1.4 |
| LY-1404 VL Q6S IgG (antibody) | 1.6 |
| LY-1404 VL Q39K IgG (antibody) | 1.4 |
| LY-1404 VL T5Q IgG (antibody) | 1.2 |
